# Key:
# [1] = test system: E. coli strain ATCC 25922; experiment: SdFFF elution-profile sensitivity test, protocol of Example 2 / FIG. 4; format: cell-based
# Experimental: (§1) The results of the antimicrobial resistance analysis are expected starting 18-26 hours after the sample was cultured on agar.
# (§2) The field-flow fractionation device is set according to patent EP1679124. The device comprises an injection system where the sample is taken, the tubing bringing the sample from the injector to the separation channel via a first rotary joint, the separation channel contained in a centrifugation bowl, the rotation of which is ensured by an electric motor itself controlled manually or via a suitable computer device, thus allowing control of the intensity of the multigravitational field, the tubing bringing the separated species from the channel to the detector via the second rotary joint, and finally the detector.
# (§3) Bacterial colonies were incubated in a Mueller-Hinton (MH) culture medium with an inoculum of 0.5 McFarland in the absence or in the presence of antibiotic, for 2 hours at 37° C. and under stirring. The liquid medium MH is the reference medium used for the reference method for determining MIC values, called the dilution method in a liquid medium.
# (§4) After incubation for 2 h, the culture medium was centrifuged and then taken up in a volume of 0.5 ml of PBS.
# (§5) According to the handlings shown in FIG. 5, the calculation of the percentage of variation in the retention factor or PΔR is carried out as follows: ?
# (§6) Example 2: A new analysis protocol was established according to FIG. 4, consistent with the clinical implementation of conventional antibiograms, making it possible to reduce to 26 hours post-sampling/isolating the time for obtaining the test results.
# (§7) Thus, such assays were carried out directly on bacterial suspensions, obtained from colonies of the E. coli strain ATCC 25922 and ATCC 35218 cultured for 16-24 hours on agar medium, and incubated for 2 hours in the presence or in the absence of antibiotic (Ampicillin, FIGS. 5A/B).
# [2] = test system: E. coli strain ATCC 35218; experiment: as above; format: cell-based
# Experimental: as §1, §2, §3, §4, §5, §6, §7
# [3] = treated with 4 mg/ml ampicillin
compound,measurement,setting,value
"CC1(C)S[C@@H]2[C@H](NC(=O)[C@H](N)c3ccccc3)C(=O)N2[C@H]1C(=O)O [ampicillin, Ampicillin]",Robs (retention factor),[1]; [3],0.408
same,retention time (tr),"[1]; treated with 4 mg/ml of ampicillin, average",2.36 min
same,Robs (retention factor),[2]; [3],0.269
same,retention time (tr),"[2]; treated with 4 mg/ml of ampicillin, average, t0 0.96 minute",3.58 min

# Reference: patent US20230167479A1, “RESEARCH INTO ANTIMICROBIAL RESISTANCE BY THE FIELD FLOW FRACTIONATION TECHNIQUE” (UNIVERSITÉ DE LIMOGES, priority 2020, published 2023)
